PubChem BioAssay AID504761, Drosophila RNAi Screening Center, 2011
Aim: 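Genome-wide fly cell screen for genes dengue virus requires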 (primary screen). Cell system: D.Mel-2 cells from Drosophila. Knock-down reagent: long dsRNA against Drosophila genes. Conditions: infection with dengue virus type 2; dose and infection time not stated. Measurement: 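Cells stained for dengue envelope protein and imaged; percent of infected cells per well on duplicate plates, ranked by infection, with stained nuclei counted for cell number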. Reading the numbers: infection score: higher = more virus-infected cells. Call rule: 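Low infection ranks in the two replicates (chance level up to 0.065) followed by a retest with a 1.5-fold or larger significant decrease, p below 0.05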. Calls: active = confirmed: knock-down lowers infection; inactive = not picked or not confirmed.
In all, the deposit lists about 22,000 reagents; this is an unselected part of those that have a named target and a result. Over the whole deposit, 116 (0.52%) got an active call. 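Calls depend on retest data that are not deposited; infection was ranked per plate without normalising between plates; the unit of the infection score is not given.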 Unmarked entries are inactive. Names joined by + are all predicted targets of the reagent. Not all columns of the deposit are shown. Not stated in the record: the amount of reagent, the time to read-out.

mgr (merry-go-round) [DRSC16099] scored infection score, replicate 1 = 8.62. Knock-down of CrzR (Corazonin receptor) [DRSC09781] came out at: infection score, replicate 1 = 2.96. CrzR (Corazonin receptor) [DRSC09782] scored infection score, replicate 1 = 11.2. Mal-A1 (Maltase A1) [DRSC07461] showed infection score, replicate 1 = 9.93. Against Mal-A1 (Maltase A1) [DRSC29096], the entry reads infection score, replicate 1 = 19.7. After knock-down of Xxylt (Xyloside xylosyltransferase) [DRSC04107], the screen gave infection score, replicate 1 = 22.5.

After knock-down of CG11617 [DRSC00321] the results were infection score, replicate 1 = 4.82. CG11617 [DRSC21786] gave infection score, replicate 1 = 5.49. Against CG11617 [DRSC28154] the deposit lists infection score, replicate 1 = 26.7. Knock-down of RpS11 (Ribosomal protein S11) [DRSC07289] came out at: infection score, replicate 1 = 9.33. RpS11 (Ribosomal protein S11) [DRSC22700] showed infection score, replicate 1 = 12.4. Knock-down of CR18275 + CG13373 [DRSC17900] gave: infection score, replicate 1 = 9.77.

Against CG10802 [DRSC17762], the values are infection score, replicate 1 = 1.69. After knock-down of CG10802 [DRSC29607], the screen gave infection score, replicate 1 = 25.6. Depletion of H2.0 (Homeodomain protein 2.0) [DRSC03340] came out at: infection score, replicate 1 = 7.29. For H2.0 (Homeodomain protein 2.0) [DRSC22555], the values are infection score, replicate 1 = 7.23. Silencing of CG13155 [DRSC06280] resulted in: infection score, replicate 1 = 11.3. Against hid (head involution defective) [DRSC11316], the values are infection score, replicate 1 = 7.04.

With knock-down of hid (head involution defective) [DRSC25461], the screen gave infection score, replicate 1 = 0.61. Cyp4p2 (Cytochrome P450 4p2) [DRSC07373] showed infection score, replicate 1 = 17.9. Silencing of Cyp4p2 (Cytochrome P450 4p2) [DRSC26900] came out at: infection score, replicate 1 = 2.35.

Reformatted: results already given
Target gene | DRSC id | infection score, replicate 1
CG11617 | DRSC00321 | 4.82
CG11617 | DRSC21786 | 5.49
